Assay [1] addresses antibody 10-1074. The assay can be described thus: neutralization IC50; higher = virus less sensitive to the antibody. Here is the method:
(§1)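 Pseudovirus bearing the Env chain mixed with antibody, from 50 µg/ml in fivefold dilutions, on TZM-bl reporter cells, in duplicate.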

Assay [2] has as its target antibody 3BNC117. Described as above. The protocol: as §1
For assay [3], the target named is antibody 10-1074. In words: neutralization IC80; higher = virus less sensitive to the antibody. The protocol: as §1
Assay [4] deals with antibody 3BNC117. The assay is described as above. Here is the method:
as §1

Some of the results follow. Env chains of viruses from a treatment-interruption trial, translated from the printed DNA. IC50 / IC80 of two broadly neutralizing antibodies; lower = more sensitive virus; >50 µg/ml means not reached and <0.001 µg/ml is below the lowest dose. No active / inactive call.

B1: HIV-1 Env, rebound clone, placebo arm (protein)
chain: MRVKGIMRNYQHLWRWGIMLLGMLMICNATEKLWVTVYYGVPVWKEATTTLFCASDAKAYDTEAHNVWATHACVPTDPDPQEVVLENVTEDFNAWKNDMIEQMHEDIISLWDQSLKPCVKLTPLCVTLECTDNVNCTGTNCTGVKDTNDTNNANLIMEKGEMKNCSFNITTNIRDKVDRQYALFYKLDIVQIEDNNTNTYRLISCNTSVITQACPKISFEPIPIHYCAPAGFAILKCKDKGFSGKGTCKNVSTVQCTHGIRPVVSTQLLLNGSLAEKEVVIRSNNLTNNAETIIVQLSKTIQINCTRPNNNTRKGIHIGPGRAFYATGEIIGDIRQAHCNISRKDWNEALKGIAGKLKEKFNKTIVFRPPIRGGDPEIVMHTFNCGGEFFYCNTTKLFNSTHNGNDTHDTAINNTTITLPCKIKQIINMWQEVGKAMYAPPIRGNISCSSNITGLLLIRDGGNTSTNETFRPGGGNMKDNWRSELYKYKVVKIEPLGVAPTKAKRRVVQREKRAMGLGALFLGFLGAAGSTMGAASVTLTVQARQLLSGIVQQQNNLLRTIEAQQHMLQLTVWGIKQLQARVLAVERYLKDQQLLGIWGCSGKLICTTSVPWNTSWSNKSYHQIWENMTWMQWEKEIDNYTGIIYTLIEESQTQQEMNEKELLELDKWASLWNWFSITNWLWYIRIFIMIVGGLIGLRIVFAVLSIVKRVRQGYSPLSFQTLFPAQRGPDRPGGIEEEGGEQDRGRSIRLVDGFLALFWDDLRSLCLFSYHRLRDLLLIVARIVELLGRRGREILKYWWSLLQYWSQELKNSAISLLNTTAIIVGEGTDRVIETAQIVVRAFLHIPRRIRQGFERALQ
As to B1, the “neutralization IC50” value stood at 0.135 µg/mL in assay [1] and 0.066 µg/mL in assay [2]. The “neutralization IC80” value in assay [3] came to 0.647 µg/mL; in assay [4], 0.26 µg/mL.

B2: HIV-1 Env, rebound clone, placebo arm (protein)
chain: MRVKGIMRNYQHLWRWGIMLLGMLMICNATEKLWVTVYYGVPVWKEATTTLFCASDAKAYDTEAHNVWATHACVPTDPDPQEVVLENVTEDFNAWKNDMIEQMHEDIISLWDQSLKPCVKLTPLCVTLECTDNVNCTGTNCTGVKDTNDTNNANLIMEKGEMKNCSFNITTNIRDKVDRQYALFYKLDIVQIEDNNTNTYRLISCNTSVITQACPKISFEPIPIHYCAPAGFAILKCKDKGFSGKGTCKNVSTVQCTHGIRPVVSTQLLLNGSLAEKEVVIRSNNLTNNAETIIVQLSKTIQINCTRPNNNTRKGIHIGPGRAFYATGEIIGDIRQAHCNISRKDWNEALKGIAGKLKEKFNKTIVFRPPIRGGDPEIVMHTFNCGGEFFYCNTTKLFNSTHNGNDTHDTAINNTTITLPCKIKQIINMWQEVGKAMYAPPIRGNISCSSNITGLLLIRDGGNTSTNETFRPGGGNMKDNWRSELYKYKVVKIEPLGVAPTKAKRRVVQREKRAMGLGALFLGFLGAAGSTMGAASVTLTVQARQLLSGIVQQQNNLLRTIEAQQHMLQLTVWGIKQLQARVLAVERYLKDQQLLGIWGCSGKLICTTSVPWNTSWSNKSYHQIWENMTWMQWEKEIDNYTGIIYTLIEESQTQQEMNEKELLELDKWASLWNWFSITNWLWYIRIFIMIVGGLIGLRIVFAVLSIVKRVRQGYSPLSFQTLFPAQRGPDRPGGIEEEGGEQDRGRSIRLVDGFLALFWDDLRSLCLFSYHRLRDLLLIVARIVELLGRRGWEILKYWWSLLQYWSQELKNSAISLLNTTAIIVGEGTDRVIETAQIVVRAFLHIPRRIRQGFERALQ
Regarding B2, the entries for the “neutralization IC50” value in assay [1] and in assay [2] were 0.156 µg/mL and 0.067 µg/mL, respectively. In addition, the “neutralization IC80” value came to 0.714 µg/mL in assay [3] and 0.254 µg/mL in assay [4].

B3: HIV-1 Env, rebound clone, placebo arm (protein)
chain: MKVRGTKVNWQHLWWRWGTMLLGMLMICKATEEKWVTVYYGVPVWKEATTTLFCASDAKAYEKEAHNVWATHACVPTDPSPQEVVLENVTENFNMWKNNMVEQMHEDIISLWDQSLKPCVKLTPLCVTLNCTDYTNSNSTNHTNSNSSSPTPTAGGEIKNCSFNITTNIRDKIKKEHALFYSLDVVQIDINDNTSYRLISCNTSVITQACPKTTFEPIPIYYCAPAGFAILKCNNKTFDGKGPCKNVSTVQCTHGIRPVVSTQLLLNGSLAEKEIVIRSDNFSDNTKNIIVQLKDPVVINCTRPNNNTRKGIHIGPGRAFYATGKVIGDIRQAYCNISKEEWNKTLGQIVKKLGAQFGNKTTMIFNQSSGGDPEIVTHSFNCGGEFFYCNTSALFNSTWSSNDGNGTWNKTNSTETNSTEIILQCRIKQIVNMWQEVGKAMYAPPIKGPIRCSSNITGLILTRDGGNNTGNNSETFRPAGGNMRDNWRSELYKYKIVKIEPLGIAPTKAKRRTVQREKRAVTMGAMFLGFLGAAGSTMGAASLTLTVQARQLLSGIVQQQNNLLRAIEAQQHLLQLTVWGIKQLQARVLAVERYLADQRFLGIWGCSGKLICTTTVPWNNSWSNKSLDSIWNNMTWMQWEKEIENYTGEIYNLIEQAQNQQEQNERELLELDKWASLWNWFDISNWLWYIKIFIMIVGGLIGLRIVFAVLSIVNRVRQGYSPLSLQTLLPTPRGPDRPEGIEGEGGERDRDTSIRLVDGFLALFWDDLRNLCLFSYRHLRDLLLIAARIVELLGLRGWEILKYLWNLLLYWSQELKNSAISLLDATAIAVAEGTDRIIEAVRRFCRGVLHIPRRIRQGFERALQ
As for B3, the “neutralization IC50” value in assay [1] stood at 0.01 µg/mL; in assay [2], 0.202 µg/mL. Moreover, the “neutralization IC80” value amounted to 0.054 µg/mL in assay [3] and 1.01 µg/mL in assay [4].

B4: HIV-1 Env, rebound clone, placebo arm (protein)
chain: MRVKGIMRNYQHLWRWGIMLLGMLMICNATEKLWVTVYYGVPVWKEATTTLFCASDAKAYDTEAHNVWATHACVPTDPDPQEVVLENVTENFNAWKNDMVEQMHEDIISLWDQSLKPCVKLTPLCVTLECTDNVNCTGTNCTGVKDTNDTNNANLIMEKGEMKNCSFNITTNIRDKVDRQYALFYKLDIVQIEDNNTNTYRLISCNTSVITQACPKVSFEPIPIHYCAPAGFAILKCKDKGFSGKGTCKNVSTVQCTHGIRPVVSTQLLLNGSLAEKEVVIRSNNLTNNAETIIVQLSKTIQINCTRPNNNTRKGIHIGPGRAFYATGEIIGDIRQAHCNISGKDWNEALKWIAGKLKEKFNKTIVFRPPIRGGDPEIVMHTFNCGGEFFYCNTTKLFNSTHNDTHDTAINNTTITLPCKIKQIINMWQEVGKAMYAPPIRGNISCSSNITGLLLIRDGGNTSTNETFRPGGGNMKDNWRSELYKYKVVKIEPLGVAPTKAKRRVVQREKRAMGLGALFLGFLGAAGSTMGAASVTLTVQARQLLSGIVQQQNNLLRAIEAQQHMLQLTVWGIKQLQARVLAVERYLKDQQLLGIWGCSGKLICTTSVPWNTSWSNKSYHQIWENMTWMQWEKEIDNYTGIIYTLIEESQTQQEMNEKELLELDKWAGLWNWFSITNWLWYIRIFIMIVGGLIGLRIVFAVLSIVKRVRQGYSPLSFQTLFPTQRGPDRPGEIEEEGGEQDRGRSIRLVDGFLALFWDDLRSLCLFSYHRLRDLLLIVARIVELLGRRGWEILKYWWSLLQYWSQELKNSAISLLNTTAIIVGEGTDRVIETAQRVVRAFLHIPRRIRQGFERALQ
B4: the figures for the “neutralization IC50” value in assay [1] and in assay [2] were 0.161 µg/mL and 0.103 µg/mL, respectively. Moreover, the “neutralization IC80” value was found to be 0.557 µg/mL in assay [3] and 0.447 µg/mL in assay [4].

B5: HIV-1 Env, rebound clone, placebo arm (protein)
chain: MRVKGIMRNYQHLWRWGIMLLGMLMICNATEKLWVTVYYGVPVWKEATTTLFCASDAKAYDTEAHNVWATHACVPTDPDPQEVVLENVTENFNAWKNDMVEQMHEDIISLWDQSLKPCVKLTPLCVTLECTDNVNCTGTNCTGVKDTNDTNNANLIMEKGEMKNCSFNITTNIRDKVDRQYALFYKLDIVQIEDNNTNTYRLISCNTSVITQACPKVSFEPIPIHYCAPAGFAILKCKDKGFSGKGTCKNVSTVQCTHGIRPVVSTQLLLNGSLAEKEVVIRSNNLTNNAETIIVQLSKTIQINCTRPNNNTRKGIHIGPGRAFYATGEIIGDIRQAHCNISGKDWNEALKWIAGKLKEKFNKTIVFRPPIRGGDPEIVMHTFNCGGEFFYCNTTKLFNSTHNDTHDTAINKTTITLPCKIKQIINMWQEVGKAMYAPPIRGNISCSSNITGLLLIRDGGNTSTNETFRPGGGNMKDNWRSELYKYKVVKIEPLGVAPTKAKRRVVQREKRAMGLGALFLGFLGAAGSTMGAASVTLTVQARQLLSGIVQQQNNLLRAIEAQQHMLQLTVWGIKQLQARVLAVERYLKDQQLLGIWGCSGKLICTTSVPWNTSWSNKSYHQIWENMTWMQWEKEIDNYTGIIYTLIEESQTQQEMNEKELLELDKWAGLWNWFSITNWLWYIRIFIMIVGGLIGLRIVFAVLSIVKRVRQGYSPLSFQTLFPTQRGPDRPGEIEEEGGEQDRGRSIRLVDGFLALFWDDLRSLCLFSYHRLRDLLLIVARIVELLGRRGWEILKYWWSLLQYWSQELKNSAISLLNTTAIIVGEGTDRVIETAQRVVRAFLHIPRRIRQGFERALQ
Regarding B5, the figures for the “neutralization IC50” value in assay [1] and in assay [2] were 0.114 µg/mL and 0.075 µg/mL, respectively. The “neutralization IC80” value was found to be 0.534 µg/mL in assay [3] and 0.29 µg/mL in assay [4].

B6: HIV-1 Env, rebound clone, placebo arm (protein)
chain: MRVKGIMRNYQHLWKWGIMLLGMLMICNATEKLWVTVYYGVPVWKEATTTLFCASDAKAYDTEAHNVWATHACVPTDPDPQEVVLENVTENFNAWKNDMVEQMHEDIISLWDQSLKPCVKLTPLCVTLECTDNVNCTGTNCTGVKDTNDTNNANLIMEKGEMKNCSFNITTNIRDKVDRQYALFYKLDIVQIEDNNTNTYRLISCNTSVITQACPKVSFEPIPIHYCAPAGFAILKCKDKGFSGKGTCKNVSTVQCTHGIRPVVSTQLLLNGSLAEKEVVIRSNNLTNNAETIIVQLSKTIQINCTRPNNNTRKGIHIGPGRAFYATGEIIGDIRQAHCNISGKDWNEALKWIAGKLKEKFNKTIVFRPPIRGGDPEIVMHTFNCGGEFFYCNTTKLFNSTHNDTHDTAINNTTITLPCKIKQIINMWQEVGKAMYAPPIRGNISCSSNITGLLLIRDGGNTSTNETFRPGGGNMKDNWRSELYKYKVVKIEPLGVAPTKAKRRVVQREKRAMGLGALFLGFLGAAGSTMGAASVTLTVQARQLLSGIVQQQNNLLRAIEAQQHMLQLTVWGIKQLQARVLAVERYLKDQQLLGIWGCSGKLICTTSVPWNTSWSNKSYHQIWENMTWMQWEKEIDNYTGIIYTLIEESQTQQEMNEKELLELDKWASLWNWFSITNWLWYIRIFIMIVGGLIGLRIVFAVLSIVKRVRQGYSPLSFQTLFPTQRGPDRPGEIEEEGGEQDRGRSIRLVDGFLALFWDDLRSLCLFSYHRLRDLLLIVARIVELLGRRGWEILKYWWSLLQYWSQELKNSAISLLNTTAIIVGEGTDRVIETAQRVVRAFLHIPRRIRQGFERALQ
Consider B6, for which the “neutralization IC50” value was determined as 0.106 µg/mL in assay [1] and 0.091 µg/mL in assay [2]. Also, the “neutralization IC80” value in assay [3] came to 0.519 µg/mL; in assay [4] it was 0.343 µg/mL.

Values taken from the supplement of paper PMC12637763.
